We go through eight molecules from publication PMC7954794, “Protein context shapes the specificity of SH3 domain-mediated interactions in vivo” (Nature Communications, 2021).

Some results come without the dose or concentration used.

Sequences and labels used below:
B1: YIR003W (protein, UniProt P40563 1-679, looked up)
Altered inheritance of …: MPSEVTPKVPERPSRRKTSELFPLSGSESGDIKANSEPPTPAGTPNVPTRRPILKAKTMTSFESGMDQESLPKVPLQRPVRRSTTEELNNVMNNTSKELEEIESLISKHNIHNVSRKKSPTSVEEGKVAAIHQNGQRSASDNKTSTNPSPLEKNEHEGAEGNESAISPSNLVNKSNNEVTEHSDSEDLTEKQKVHAALDNEAGDRSHFEEKLIPGDMKVQVDVSKDVEEGSLNALPPSGITESDDKAEKFTKHPESSLEELQKHQEQQEEKIFQNPTDEESTTSLNEKQEGKDNMEVNSQPQGPSDTETVIAATSSNVPSQIASEEENDVPVIPRSRPKKDFEAHVQKEELPNTQEKRVSEECDSTLISTEEESKIPKIPSERPKRRAPPPVPKKPSSRIAAFQEMLQKQQQQDLHNNGNSSATTASADIAKKHTDSSITSDTTKADFTSKLNGLFALPGMVNPGQLPPSLEKKLSSPDTESKLGPQDQSQAKTGPLGGTRRGRGPRGRKLPSKVASVEKIEEDDNTNKIEIFNNWNVSSSFSKEKVLIDTTPGEQAERALDEKSKSIPEEQREQSPNKMEAALCPFELDEKEKLPANAESDPLSQLPQTNAVGNRKAISEESLSPSEAIANRDQNDTTEIQEQQMEDQMEVDMERELSGGYEDVDSALHSEEASFHSL
B2: YLR196W (protein, UniProt P21304 1-576, looked up)
Periodic tryptophan protein 1: MISATNWVPRGFSSEFPEKYVLDDEEVERINQLAQLNLDDAKATLEEAEGESGVEDDAATGSSNKLKDQLDIDDDLKEYNLEEYDDEEIADNEGGKDVSMFPGLSNDSDVKFHEGEKGEDPYISLPNQEDSQEEKQELQVYPSDNLVLAARTEDDVSYLDIYVYDDGAGFHSSDIPVEEGDEADPDVARGLVRDPALYVHHDLMLPAFPLCVEWLDYKVGSNSEEAANYAAIGTFDPQIEIWNLDCVDKAFPDMILGEPLDNSMVSLKSKKKKKKSKTGHITTHHTDAVLSMAHNKYFRSVLASTSADHTVKLWDLNSGNAARSLASIHSNKNVSSSEWHMLNGSILLTGGYDSRVALTDVRISDESQMSKYWSAMAGEEIETVTFASENIILCGTDSGNVYSFDIRNNENRKPVWTLKAHDAGISTLCSNKFIPGMMSTGAMGEKTVKLWKFPLDDATNTKGPSMVLSRDFDVGNVLTSSFAPDIEVAGTMVIGGVNKVLKLWDVFTNRSVRKSFKSELENVQARAKEEAQKIGKSSRIARKYTSNDNPDTVITIDDQGEDEEEREGGDEHDDMA
B3: YJL155C (protein, UniProt P32604 1-452, looked up)
Fructose-2,6-bisphosphatase: MGYSTISNDNDIKVCVIMVGLPARGKSFISQKIIRYLSWLSIKAKCFNVGNYRRDVSGNVPMDAEFFNFENTDNFKLRELAAQNAIKDIVNFFTKEDGSVAVFDATNSTRKRRKWLKDICEKNNIQPMFLESWSNDHELIINNAKDIGSTSPDYENSEPHVAEADFLERIRQYERFYEPLDPQKDKDMTFIKLVNIIEEVVINKIRTYLESRIVFYVMNIRPKPKYIWLSRHGESIYNVEKKIGGDSSLSERGFQYAKKLEQLVKESAGEINLTVWTSTLKRTQQTANYLPYKKLQWKALDELDAGVCDGMTYEEIEKEYPEDFKARDNDKYEYRYRGGESYRDVVIRLEPVIMELERQENVLIITHQAVLRCIYAYFMNVPQEESPWMSIPLHTLIKLEPRAYGTKVTKIKANIPAVSTYKEKGTSQVGELSQSSTKLHQLLNDSPLEDKF
B4: YIR006C (protein, UniProt P32521 1-1480, looked up)
Actin cytoskeleton-regulatory …: MYNPYQQQGMGYQQQQQQQQQQPNGFYPQQQQGQSSNQPQGQPQPQQQMAFNQPQATGIGGMPQSFGNSFSSMPQQPQTGYNNNGNNGSVYGNGNFGQQPQQQQQQAKPQHTGYVPNSSMPMMNTTGTMPPPNPAQQPQLQSIQPQGTGYYQAANTANVHSVQPLQSQGTGYYVSTPNLISSNQTQQPLQAQGTGYYQSQPQQVPPPQQAQSLQPLKPQQTGFYLQPQNQAPLEPLKPTATGFVNSFANNGLNNDIKIPAIRLSFITAQDQAKFETLFRSIVTNGSNTVSGANCRKILMRSGLPPSQLARIWTLCDTSKAGELLFPEFALAMHLINDVLQGDTIPYELDSKTKNEVSSFIDAINLSIANQDSSANDAPKTPFDEFITAGVQNLQPQPTGYMPQTSFGIPLQSQITGGGVASALNPQSTGFMAPTTFNMSMNTGTPGLNPQITGGAPASMQPNITGNALQPQTTGMMPQTTGMMPQTTGMMPQTSFGVNLGPQLTGGALQSQYTGGYGSVMPQQSGPASMPNLSFNQQGLQSQLTGLQPQPTGFLPPSNFSATMPLTAQKTGFGNNEIYTKSNFNNNLIDNSSQDKISTEEKSLFYKIFETFDTQNKGLLDSPTAVEIFRKSGLNRADLEQIWNLCDINNTGQLNKQEFALGMHLVYGKLNGKPIPNVLPSSLIPSSTKLLDNLKNQLKTEPTTTKEKPSFGKIDALSYKNNDDDVLPNYRNRRKVYSAKNEEQSSFSSPSAKSVNHSSSTLQTDDISVDKTVEKKTAKPKYAGFSREINLKNIASLENEIKNISNPENCYDSSIPSDLTSRFDAIIAKLPNLFNEISTIDNEITNAKIQLYRKKNPSSIIGSGPNGEITENDRKKAKSRALLRARMSALTGKSTESEDSLSMEDEQQSAEIKRIQQENGKNQEIIKDIRSSISDISASLKSTMTGSNMISNQEFERWEFGIGLEDGVREFLDDLKSNSNKSVTESSPFVPSSTPTPVDDRSSSPSYSQFKTAEERAAYLKEQAKKRMKEKLAKFDKNRRNVTQSSRSISSENSREQPQQIAGSSNLVEPRATPFQEEKYVEVAQPTQPVQSTQPVQPTQPVQPTQPVQPTQPVQPTQPVQPTQPVQNVYNAKQESDDEDEDDEEKRLQEELKRLKLKKKADKEKRLAALRKQIEDAQNESDEEETNGKDNFGGHVNVPQAAPVAPSAAFSQNSTNAPRSVHAAVTPAAGKNSTGLPSTTMGHNPYFKDASASSTSTFDARAAEMQRRIQRGLDEDEDDGWSDEDESNNRVAVDNKVEEAKIGHPDHARAPPVTAAPLPSVTPVPPAVPVPQANTSNEKSSPIPIAPIPPSVTQEPPVPLAPPLPAVDGFQEPPIPSAPAIATAVQKSGSSTPALAGGVLPPPPPLPTQQASTSEPIIAHVDNYNGAEKGTGAYGSDSDDDVLSIPESVGTDEEEEGAQPVSTAGIPSIPPAGIPPPPPLP
B5: YJL201W (protein, UniProt P32525 1-599, looked up)
Protein ECM25: MIDINVNNIFFRSYSVDPNSGHAIYVFDSTYLPASDEIGDKQVYDLLINALMDRLVMKLPQAPYSLVIFSSGFSQRKISWVYGIKMFAKLPKETKFYLQKIFIVHESFFVRSVYQVISNAMNFNFLDSKDSQHDFPSLVHVLDLTSLSELIDITRLRISLNVYLYDYQIREHINVPEEYYNRLTPLAIRQYRQLVFDKIFKKLQNDALLCELIFQKPGNYKKVNIFLDIIKRNNYIDLSQWDIYSLASVWLNYFIKNKAKPLIPIELIPLPIVDDLKFTSETFRKIIKFNQYQDLFMVIIPFFNRIIAHGESTKHDSRTLSKALTPALCKEKLSMMTNDRLAIGSRYIKNLLDFFPEIAKEISSPPSSVSSSSTIPVLPKPRKSSPTRYSELGCLTLPRSRSPSPQRSVTSPTYTPVALQNTPVLKPKSSSRNVSSPSFNAKPPLPIKAVTRPQLSLTSNSNTDLALASSSTDTLSSPTKTPSADSLPLSNSSTDLTISDNIKEMVKDEPAKDKNSVETDIFVQQFESLTLVQNAKIKKFDKELQEKKKKNETTSKTADKFSQKGYSDIKASNKVSRLAALYEERLQGLQVMNEMKQRW
B6: YKR048C (protein, UniProt P25293 1-417, looked up)
Nucleosome assembly protein: MSDPIRTKPKSSMQIDNAPTPHNTPASVLNPSYLKNGNPVRAQAQEQDDKIGTINEEDILANQPLLLQSIQDRLGSLVGQDSGYVGGLPKNVKEKLLSLKTLQSELFEVEKEFQVEMFELENKFLQKYKPIWEQRSRIISGQEQPKPEQIAKGQEIVESLNETELLVDEEEKAQNDSEEEQVKGIPSFWLTALENLPIVCDTITDRDAEVLEYLQDIGLEYLTDGRPGFKLLFRFDSSANPFFTNDILCKTYFYQKELGYSGDFIYDHAEGCEISWKDNAHNVTVDLEMRKQRNKTTKQVRTIEKITPIESFFNFFDPPKIQNEDQDEELEEDLEERLALDYSIGEQLKDKLIPRAVDWFTGAALEFEFEEDEEEADEDEDEEEDDDHGLEDDDGESAEEQDDFAGRPEQAPECKQS
B7: YKR001C (protein, UniProt P21576 1-704, looked up)
Vacuolar protein …: MDEHLISTINKLQDALAPLGGGSQSPIDLPQITVVGSQSSGKSSVLENIVGRDFLPRGTGIVTRRPLVLQLINRRPKKSEHAKVNQTANELIDLNINDDDKKKDESGKHQNEGQSEDNKEEWGEFLHLPGKKFYNFDEIRKEIVKETDKVTGANSGISSVPINLRIYSPHVLTLTLVDLPGLTKVPVGDQPPDIERQIKDMLLKYISKPNAIILSVNAANTDLANSDGLKLAREVDPEGTRTIGVLTKVDLMDQGTDVIDILAGRVIPLRYGYIPVINRGQKDIEHKKTIREALENERKFFENHPSYSSKAHYCGTPYLAKKLNSILLHHIRQTLPEIKAKIEATLKKYQNELINLGPETMDSASSVVLSMITDFSNEYAGILDGEAKELSSQELSGGARISYVFHETFKNGVDSLDPFDQIKDSDIRTIMYNSSGSAPSLFVGTEAFEVLVKQQIRRFEEPSLRLVTLVFDELVRMLKQIISQPKYSRYPALREAISNQFIQFLKDATIPTNEFVVDIIKAEQTYINTAHPDLLKGSQAMVMVEEKLHPRQVAVDPKTGKPLPTQPSSSKAPVMEEKSGFFGGFFSTKNKKKLAALESPPPVLKATGQMTERETMETEVIKLLISSYFSIVKRTIADIIPKALMLKLIVKSKTDIQKVLLEKLYGKQDIEELTKENDITIQRRKECKKMVEILRNASQIVSSV
B8: YJL128C (protein, UniProt P08018 1-668, looked up)
MAP kinase kinase PBS2: MEDKFANLSLHEKTGKSSIQLNEQTGSDNGSAVKRTSSTSSHYNNINADLHARVKAFQEQRALKRSASVGSNQSEQDKGSSQSPKHIQQIVNKPLPPLPVAGSSKVSQRMSSQVVQASSKSTLKNVLDNQETQNITDVNINIDTTKITATTIGVNTGLPATDITPSVSNTASATHKAQLLNPNRRAPRRPLSTQHPTRPNVAPHKAPAIINTPKQSLSARRGLKLPPGGMSLKMPTKTAQQPQQFAPSPSNKKHIETLSNSKVVEGKRSNPGSLINGVQSTSTSSSTEGPHDTVGTTPRTGNSNNSSNSGSSGGGGLFANFSKYVDIKSGSLNFAGKLSLSSKGIDFSNGSSSRITLDELEFLDELGHGNYGNVSKVLHKPTNVIMATKEVRLELDEAKFRQILMELEVLHKCNSPYIVDFYGAFFIEGAVYMCMEYMDGGSLDKIYDESSEIGGIDEPQLAFIANAVIHGLKELKEQHNIIHRDVKPTNILCSANQGTVKLCDFGVSGNLVASLAKTNIGCQSYMAPERIKSLNPDRATYTVQSDIWSLGLSILEMALGRYPYPPETYDNIFSQLSAIVDGPPPRLPSDKFSSDAQDFVSLCLQKIPERRPTYAALTEHPWLVKYRNQDVHMSEYITERLERRNKILRERGENGLSKNVPALHMGGL

This data set deals with ABP1. The experiment in a line: DHFR-PCA on solid medium, bait ABP1 (Fig. 1B). In kind it is cell-based, Saccharomyces cerevisiae. Set-up: key: 0: SH3-independent; 1: SH3-dependent PPIs; 2: SH3-inhibited PPIs. Particulars: bait ABP1, label = prey. From the text: Supplement 41467_2021_21873_MOESM8_ESM.xlsx, sheet "Fig1B" | column: medsize; medrep; Ratio; Score
On to B1, for which the Score came to 0. Next, B2: 0; B3: 0. B4 showed a Score of 0. The figure for B5 is 0; for B6 it is 0. Next, B7: 0; B8: 0.
